Values quoted from earlier work in patent US20090162921A1 (priority 2005, published 2009).

Test system: mouse
Details: for LD50: oral toxicity, arsenic species at various steps of methylation

Row | Compound | LD50 (50% of the fatal dose in mouse) [mg/kg] | LD50
1 | trimethylarsineoxide | 10600 | 10,600 mg/kg
2 | arsenocholine | 6000 | 6,000 mg/kg
3 | C[As](=O)(O)O | 1800 | 
4 | arsenous acid | 4.5 | 4.5 mg/kg
